Results taken from PubChem BioAssay AID602481 (Broad Institute, 2012).
This is a selection; strong and weak results do not stand in their true shares. The source made the active and inactive calls. No stated cut-off is given here; in the data, active means inhibition above about 40%; inconclusive means no clear call, values can overlap the other calls; inactive means below that.

test system: 7,8-diaminopelargonic acid synthase BioA (Mycobacterium tuberculosis); experiment: M. tuberculosis BioA enzyme inhibitors, primary screen, biochemical, plate reader, single point, HTS (AID 602481); conditions: purified M. tuberculosis BioA enzyme, at 9.99 µM, stronger effect = higher value

Row | SMILES | inhibition
1 | c1ccc(CN2CCC(Nc3ccccc3)CC2)cc1 | inactive: 1.82%
2 | CCCN1CCC(Nc2cc(OC)cc(OC)c2)CC1 | inactive: -6.91%
3 | O=c1[nH]c2ccccc2n1C1CCN(C(c2ccccc2)c2nnnn2C2CCCC2)CC1 (stereo not given) | inactive: -2.01%
4 | CN(C)C1(CNC(=O)c2cccc(C#N)c2)CCCCC1 | inactive: -2.32%
5 | CC(C)(C)n1nnnc1C(c1cccc2ccccc12)N1CCC(n2c(=O)[nH]c3ccccc32)CC1 (stereo not given) | inactive: -2.41%
6 | CC(C)(C)OC(=O)N1CCC(N(C(=O)c2ccccc2)c2ccc(Cl)cc2)CC1 | inactive: -2.96%
7 | N#Cc1ccc(C(=O)NCC2(N3CCCCC3)CCCCC2)cc1 | inactive: -0.881%
8 | N/C(=N\O)c1c(N)no[n+]1[O-] | inactive: 0.544%
9 | CCOC(=O)N1CCC(Nc2ccc(C)cc2)CC1 | inactive: -0.833%
10 | COc1cccc(C(c2nnnn2C(C)(C)C)N2CCC(n3c(=O)[nH]c4ccccc43)CC2)c1OC (stereo not given) | inactive: 0.0885%
11 | CCCCn1nnnc1C(c1cccc(OC)c1OC)N1CCC(n2c(=O)[nH]c3ccccc32)CC1 (stereo not given) | inactive: 1.5%
12 | O=c1[nH]c2ccccc2n1C1CCN(C(c2cccs2)c2nnnn2C2CCCC2)CC1 (stereo not given) | inactive: 0.23%
13 | O=C(NCC1(N2CCOCC2)CCCCC1)c1cc(Br)ccc1Cl | inactive: -1.78%
14 | CCCCn1nnnc1C(c1ccccc1)N1CCC(n2c(=O)[nH]c3ccccc32)CC1 (stereo not given) | inactive: 1.68%
15 | COc1cc(C(=O)NCC2(N3CCOCC3)CCCCC2)cc(OC)c1C | inactive: -0.621%
16 | O=c1[nH]c2ccccc2n1C1CCN(C(c2ccnc3ccccc23)c2nnnn2C2CCCC2)CC1 (stereo not given) | inactive: -1.18%
17 | O=c1[nH]c2ccccc2n1C1CCN(C(c2cccs2)c2nnnn2C2CCCCC2)CC1 (stereo not given) | inactive: -1.71%
18 | CCC(CO)(C(=O)OC1CN2CCC1CC2)c1ccccc1 (stereo not given) | inactive: -0.585%
19 | COc1cccc(C(c2nnnn2C2CCCC2)N2CCC(n3c(=O)[nH]c4ccccc43)CC2)c1OC (stereo not given) | inactive: 3.93%
20 | COc1cc(OC)cc(C(=O)NCC2(N3CCOCC3)CCCCC2)c1 | inactive: 0.239%
21 | COc1cccc(C(=O)N(c2cc(C)cc(C)c2)C2CCN(C(=O)OC(C)(C)C)CC2)c1 | inactive: -1.43%
22 | CN1CCC(Nc2ccc(Cl)cc2)CC1 | inactive: 0.206%
23 | CCOc1ncccc1C(=O)NCC1(N2CCOCC2)CCCCC1 | inactive: 1.16%

Row | SMILES | inhibition
24 | CN1CCC(Nc2ccc(F)c(Cl)c2)CC1 | inactive: -1.18%
25 | O=c1[nH]c2ccccc2n1C1CCN(C(c2cc3ccccc3o2)c2nnnn2C2CCCC2)CC1 (stereo not given) | inactive: -2.89%
26 | O=C(O)C1(Nc2ccccc2)CCN(Cc2ccccc2)CC1 | inactive: 0.0605%
27 | Cc1ccccc1NC1(C#N)CCN(Cc2ccccc2)CC1 | inactive: -1.1%
28 | COc1ccc(C(c2nnnn2C2CCCCC2)N2CCC(n3c(=O)[nH]c4ccccc43)CC2)cc1 (stereo not given) | inactive: 0.349%
29 | CC(C)(C)n1nnnc1C(c1ccnc2ccccc12)N1CCC(n2c(=O)[nH]c3ccccc32)CC1 (stereo not given) | inactive: 7.03%
30 | O=C(NCC1(N2CCCCC2)CCCCC1)c1ccco1 | inactive: -0.165%
31 | Cn1c(=O)[nH]cc(N(CCCl)CCCl)c1=O | inactive: 8.88%
32 | COc1cc(OC)cc(C(=O)NCC2(N3CCCCC3)CCCCC2)c1 | inactive: -0.181%
33 | O=c1[nH]c2ccccc2n1C1CCN(C(c2ccnc3ccccc23)c2nnnn2C2CCCCC2)CC1 (stereo not given) | inactive: -1.8%
34 | COc1cccc(C(c2nnnn2C2CCCCC2)N2CCC(n3c(=O)[nH]c4ccccc43)CC2)c1OC (stereo not given) | inactive: -1.11%
35 | CC(=O)N(c1ccccc1)C1CCNCC1 | inactive: 1.04%
36 | CCC(c1nnnn1C1CCCCC1)N1CCC(n2c(=O)[nH]c3ccccc32)CC1 (stereo not given) | inactive: -0.3%
37 | Cc1ccc(NC2(C#N)CCN(Cc3ccccc3)CC2)cc1 | inactive: -0.063%
38 | Cc1ccc(C(=O)NCC2(N3CCCCC3)CCCCC2)o1 | inactive: -0.9%
39 | Fc1ccccc1NC1CCN(Cc2ccccc2)CC1 | inactive: -0.366%
40 | O=c1[nH]c2ccccc2n1C1CCN(C(c2ccccc2)c2nnnn2C2CCCCC2)CC1 (stereo not given) | inactive: 0.111%
41 | O=c1[nH]c2ccccc2n1C1CCN(C(c2cccc3ccccc23)c2nnnn2C2CCCC2)CC1 (stereo not given) | inactive: -0.439%
42 | CCOC(=O)N1CCC(Nc2cccc(C)c2)CC1 | inactive: 1.48%
43 | COc1cc(C(=O)NCC2(N(C)C)CCCCC2)ccc1OC(F)F | inactive: -1.46%
44 | CC(C)(C)n1nnnc1C(c1ccccc1)N1CCC(n2c(=O)[nH]c3ccccc32)CC1 (stereo not given) | inactive: -1.01%
45 | O=C1CCN(Cc2ccccc2)CC1 | inactive: 0.404%
46 | O=P1(N(CCCl)CCCl)SCCCS1 | inactive: 0.44%

Row | SMILES | inhibition
47 | CCCCn1nnnc1C(c1cc2ccccc2o1)N1CCC(n2c(=O)[nH]c3ccccc32)CC1 (stereo not given) | inactive: -2.17%
48 | CCCCOc1ccc(C(=O)NCC2(N3CCOCC3)CCCCC2)cc1 | inactive: -0.883%
49 | O=C(NCC1(N2CCCCC2)CCCCC1)c1ccc(F)cc1 | inactive: 0.948%
50 | COc1ccc(NC2CCN(CCc3ccccc3)CC2)c(OC)c1 | inactive: 2.12%
51 | CCOC(=O)N1CCC(Nc2ccc(F)cc2)CC1 | inactive: 0.467%
52 | O=C(NCC1(N2CCCCC2)CCCCC1)c1ccc(Cl)nc1 | inactive: -2.05%
53 | O=c1[nH]c2ccccc2n1C1CCN(C(c2ccccc2OC(F)(F)F)c2nnnn2C2CCCCC2)CC1 (stereo not given) | inactive: -0.237%
54 | Cc1cc(C)cc(N(C(=O)c2ccccc2)C2CCN(C(=O)OC(C)(C)C)CC2)c1 | inactive: 1.56%
55 | CCOC(=O)N1CCC(Nc2ccc(OC)cc2)CC1 | inactive: -1.55%
56 | CCCCn1nnnc1C(c1ccc(OC)cc1)N1CCC(n2c(=O)[nH]c3ccccc32)CC1 (stereo not given) | inactive: -1.98%
57 | O=C(NCC1(N2CCCCC2)CCCCC1)c1ccc(Cl)s1 | inactive: -1.2%
58 | O=C(OC1CN2CCC1CC2)C1c2ccccc2Oc2ccccc21 (stereo not given) | inactive: -1.78%
59 | O=c1[nH]c2ccccc2n1C1CCN(C(c2cc3ccccc3o2)c2nnnn2C2CCCCC2)CC1 (stereo not given) | inactive: -1.13%
60 | O=C(NCC1(N2CCCCC2)CCCCC1)c1ccc(=O)[nH]c1 | inactive: -3.14%
61 | CCCCn1nnnc1C(CC)N1CCC(n2c(=O)[nH]c3ccccc32)CC1 (stereo not given) | inactive: 0.837%
62 | O=C(NCC1(N2CCCCC2)CCCCC1)c1cccs1 | inactive: -2.73%
63 | CCCCn1nnnc1C(c1cccs1)N1CCC(n2c(=O)[nH]c3ccccc32)CC1 (stereo not given) | inactive: 2.39%
64 | COc1ccc(C(=O)NCC2(N3CCCCC3)CCCCC2)cc1 | inactive: -0.915%
65 | CC(C)(C)OC(=O)N1CCC(N(C(=O)c2ccccc2)c2ccc(F)cc2)CC1 | inactive: -1.09%
66 | CCC(c1nnnn1C1CCCC1)N1CCC(n2c(=O)[nH]c3ccccc32)CC1 (stereo not given) | inactive: 1.58%
67 | CSc1ccccc1C(=O)NCC1(N2CCCCC2)CCCCC1 | inactive: -2.6%
68 | Cc1cccc(NC2(C#N)CCN(Cc3ccccc3)CC2)c1 | inactive: 0.822%
69 | CN1CCC(Nc2cccc(F)c2)CC1 | inactive: 0.85%

Row | SMILES | inhibition
70 | O=C(NCC1(N2CCCCC2)CCCCC1)c1cncc(Br)c1 | inactive: -0.803%
71 | Cc1ccc(C(=O)NCC2(N(C)C)CCCCC2)o1 | inactive: -2.44%
72 | CCCOc1ccc(C(=O)NCC2(N(C)C)CCCCC2)cc1OC | inactive: -0.723%
73 | COc1ccc(C(c2nnnn2C2CCCC2)N2CCC(n3c(=O)[nH]c4ccccc43)CC2)cc1 (stereo not given) | inactive: -0.968%
74 | CN(C)c1cccc(C(=O)NCC2(N3CCCCC3)CCCCC2)c1 | inactive: -0.814%
75 | CCCCn1nnnc1C(c1ccccc1OC(F)(F)F)N1CCC(n2c(=O)[nH]c3ccccc32)CC1 (stereo not given) | inactive: -8.01%
76 | CCCCn1nnnc1C(c1ccnc2ccccc12)N1CCC(n2c(=O)[nH]c3ccccc32)CC1 (stereo not given) | inactive: 11.9%
77 | COc1cc(OC)c(C(=O)NCC2(N(C)C)CCCCC2)cc1OC | inactive: -0.545%
78 | O=C(NCC1(N2CCOCC2)CCCCC1)c1cc(F)c(F)cc1Cl | inactive: -0.235%
79 | CCC(c1nnnn1C(C)(C)C)N1CCC(n2c(=O)[nH]c3ccccc32)CC1 (stereo not given) | inactive: -1.66%
80 | O=C(NCC1(N2CCCCC2)CCCCC1)c1cccc(C(F)(F)F)c1 | inactive: -1.92%
81 | CN1CCN(CCOC(=O)C(O)(c2ccccc2)c2ccccc2)CC1 | inactive: -0.351%
82 | CCCCn1nnnc1C(c1cccc2ccccc12)N1CCC(n2c(=O)[nH]c3ccccc32)CC1 (stereo not given) | inactive: -0.749%
83 | COc1cc(C(=O)NCC2(N3CCCCC3)CCCCC2)ccc1OC(F)F | inactive: -7.26%
84 | O=C(NCC1(N2CCOCC2)CCCCC1)c1cc(=O)[nH]c2ccccc12 | inactive: -0.515%
85 | CC(C)(C)n1nnnc1C(c1ccccc1OC(F)(F)F)N1CCC(n2c(=O)[nH]c3ccccc32)CC1 (stereo not given) | inactive: -2.36%
86 | O=C(NCC1(N2CCCCC2)CCCCC1)c1ccc(OC(F)F)cc1 | inactive: -2.08%
87 | CSc1ccc(C(=O)NCC2(N3CCOCC3)CCCCC2)cc1 | inactive: -0.541%
88 | CCN1CCC(Nc2ccc(Cl)cc2)CC1 | inactive: 2.04%
89 | O=c1[nH]c2ccccc2n1C1CCN(C(c2ccccc2OC(F)(F)F)c2nnnn2C2CCCC2)CC1 (stereo not given) | inactive: -3.84%
90 | N#CC1(Nc2ccccc2)CCN(CCc2ccccc2)CC1 | inactive: 2.06%
